{"source": "paper PMC7098451", "test_system": "Nc1ccn([C@@H]2O[C@H](COP(=O)(O)OP(=O)(O)OP(=O)(O)O)[C@@H](O)[C@H]2O)c(=O)n1", "assay": "purified protein", "conditions": "pH 8.5; 37.0 °C", "data": [{"substance": "LpCLS (Legionella pneumophila CMP-Leg5,7Ac2 synthetase) (Legionella pneumophila subsp. pneumophila str. Philadelphia 1)", "values": [{"measurement": "Km", "value": "1100 ± 200", "unit": "µM"}]}]}
